Anti-infective test results gathered from many reports (values: NIAID ChemDB through PubChem).

Shared fields: tests in culture; agent: Mycobacterium tuberculosis

A number after MIC or MFC names an inhibition level or a share of isolates.

SMILES,read by,endpoint,dose,strain,value
c1ccc2sc(SSc3nc4ccccc4s3)nc2c1,-,MIC,-,H37Rv,>100 µg/mL
COc1ccc(/C=C/C(=O)c2c(O)cccc2OC)cc1,-,inhibition,12.5 µg/mL,-,75%
Cc1c(O)c(=O)ccn1CCN.Cl.Cl,BACTEC,MIC,-,H37Rv,≥12.5 µg/mL
CC(C)=CCC/C(C)=C/CNCCN[C@@H]1C[C@@H]2C[C@H]([C@H]1C)C2(C)C,-,MIC,-,-,25 µM
CCOC(=O)Nc1cc2c(nc(-c3ccccc3)c3nncn32)c(NC(c2ccccc2)c2ccccc2)n1,-,inhibition,12.5 µg/mL,H37Rv,0%
CCOC(=O)CNC(N)=O,-,MIC,-,H37Rv,>100 µg/mL
O=C([O-])[C@H]([O-])[C@@H]([O-])C(=O)[O-].O=C([O-])[C@H]([O-])[C@@H]([O-])C(=O)[O-].[Na+].[Na+].[Na+].[Na+].[O]=[V+2].[O]=[V+2],BACTEC,inhibition,12.5 µg/mL,H37Rv,4%
C[C@H]1C[C@H](N)CN1c1cc2c(cc1F)c(=O)c(C(=O)O)cn2-c1ccc(F)cc1F,-,MIC50,-,DRUG-SUS,2 µg/mL
CN1CCCC1CN1c2ccccc2Sc2ccccc21,BACTEC,MIC bound,-,H37Rv,>12.5 µg/mL
CC(NCCNCCC(c1ccccc1)c1ccccc1)C12CC3CC(CC(C3)C1)C2,-,MIC,-,-,6.25 µM
CCOC(=O)Nc1cc(N(C)CC(O)c2ccccc2)c(N)c(N)n1,-,inhibition,12.5 µg/mL,H37Rv,20%
CC[C@H]1OC(=O)[C@H](C)[C@@H](O[C@H]2C[C@@](C)(OC)[C@@H](O)[C@H](C)O2)[C@H](C)[C@@H](O[C@@H]2O[C@H](C)C[C@H](N(C)C)[C@H]2O)[C@](C)(O)C[C@@H](C)C(=O)[C@H](C)[C@@H](O)[C@]1(C)O,-,MIC,-,ATCC35838,>8 µg/mL
C=C1c2cccc(O)c2C(O)=C2C(=O)[C@]3(O)C(O)=C(C(N)=O)C(=O)[C@@H](N(C)C)[C@@H]3[C@@H](O)[C@H]12.Cl,BACTEC,inhibition,12.5 µg/mL,H37Rv,83%
c1ccc(C(CCNCCNCC(c2ccccc2)c2ccccc2)c2ccccc2)cc1,-,MIC,-,-,37.5 µM
Cc1cc(C)c(N(C)C(=O)CCC(=O)O)c(I)c1,-,MIC,-,H37Rv,100 µg/mL
CC1COc2c(N3CCN(C)CC3)c(F)cc3c(=O)c(C(=O)O)cn1c23,-,MIC,-,ATCC 35822,1 µg/mL
CCOc1cc(C)cc(C)c1N(C)C(=O)CCC(=O)O,-,MIC,-,H37Rv,100 µg/mL
CO[C@H]1/C=C/O[C@@]2(C)Oc3c(C)c(O)c4c(O)c(c(/C=N/N5CCN(C/C=C/c6ccccc6)CC5)c(O)c4c3C2=O)NC(=O)/C(C)=C\C=C\[C@H](C)[C@H](O)[C@@H](C)[C@@H](O)[C@@H](C)[C@H](OC(C)=O)[C@@H]1C,-,MBC,-,35 (rifampin-resistant),0.8 µg/mL
CO[C@H]1/C=C/O[C@@]2(C)Oc3c(C)c(O)c4c(O)c(c5c(c4c3C2=O)NC2(CCN(CC(C)C)CC2)N=5)=NC(=O)/C(C)=C\C=C\[C@H](C)[C@H](O)[C@@H](C)[C@@H](O)[C@@H](C)[C@H](OC(C)=O)[C@@H]1C,-,MIC,-,Isolate 900241 drug-susceptible,0.063 µg/mL
CCOC(=O)c1c2c3c(c(Nc4ccc(O)cc4)ccc3n(C)c1=O)C(=O)c1ccccc1-2,-,MIC,-,H37Rv,>100 µg/mL
COc1ccc2c(c1)CC(CN1CCC3(CC1)C(=O)N(C)CN3c1ccccc1)O2,BACTEC,inhibition,12.5 µg/mL,H37Rv,23%
CCCCCCCC/C(C)=N\NC(N)=O,-,MIC,-,H37Rv,>100 µg/mL
CC(C)N=c1cc2n(-c3ccc(Cl)cc3)c3ccccc3nc-2cc1Nc1ccc(Cl)cc1,broth dilution / resazurin,MIC,-,MDR21,1 µg/mL
CC(C)=O.CC(C)C1(NC(=O)C2C=C3c4cccc5[nH]cc(c45)CC3N(C)C2)OC2(O)C3CCCN3C(=O)C(Cc3ccccc3)N2C1=O,BACTEC,MIC,-,H37Rv,≥12.8 µg/mL
Cc1ccc(Nc2ccc(Nc3ccc(C)cc3S(=O)(=O)O)c3c2C(=O)c2ccccc2C3=O)c(S(=O)(=O)O)c1,-,MIC,-,H37Rv,>100 µg/mL
CCCCC(CC)CN1CN(CC(CC)CCCC)CC(C)(NCCNC(C)C)C1,-,MIC,-,-,25 µM
CC1=NN(c2ccc(N)cc2)C(=O)C1,-,MIC,-,H37Rv,50 µg/mL
c1ccc(CCCCNCCNCc2ccc3c(c2)OCO3)cc1,-,MIC,-,-,25 µM
CCCCCCCCCCCNCCNC(C)CCc1ccccc1,-,MIC,-,-,25 µM
CCCCC(CC)CN1CN(CC(CC)CCCC)CC(C)(NCCNCCc2cccc(F)c2)C1,-,MIC,-,-,12.5 µM
CC(C)=CCC/C(C)=C/CNCCNCC(C)c1ccccc1,-,MIC,-,-,50 µM
CCOC(=O)CCBr,-,MIC,-,H37Rv,>100 µg/mL
Cc1nc2nc3n(c(=O)c2nc1C)CCS3,resazurin,MIC bound,-,H37Rv,>6.25 µg/mL
CC(CNC[C@@H]1CC[C@H]2C[C@@H]1C2(C)C)N[C@H]1C[C@H]2CC[C@]1(C)C2(C)C,-,MIC,-,-,50 µM
O=C(O)c1c(Cl)c(Cl)c(Cl)c(Cl)c1-c1c2cc(I)c(=O)c(I)c-2oc2c(I)c(O)c(I)cc12,-,MIC,-,H37Rv,>100 µg/mL
c1ccc(C(NCCNC2CCCCCCC2)c2ccccc2)cc1,-,MIC,-,-,12.5 µM
Cc1ccc(S(=O)(=O)NNC(=O)c2cc3ccccc3[nH]2)cc1,BACTEC,inhibition,6.25 µg/mL,H37Rv,0%
CCCC(C)c1ccc(Nc2ccc3c4c2C(=O)c2ccccc2-c4c(C(=O)OCC)c(=O)n3C)c(S(=O)(=O)O)c1.N,-,MIC,-,H37Rv,>100 µg/mL
O=C1CCCCCCC/C=C\CCCCCCO1,BACTEC,MIC bound,-,H37Rv,>12.5 µg/mL
CCOC(=O)Nc1cc(N[C@@H](C)[C@H](O)c2ccccc2)c([N+](=O)[O-])c(N)n1,-,inhibition,12.5 µg/mL,H37Rv,0%
O=C1CC(c2ccccc2)Oc2ccc(I)cc21,-,inhibition,12.5 µg/mL,H37Rv,0%
c1ccc([C@H]2C[C@@H]2NCCNC2C3CC4CC(C3)CC2C4)cc1,-,MIC,-,-,25 µM
CCOC(=O)Nc1cc2[nH]c(-c3ccccc3)nc2c(N(CCc2ccccc2)Cc2ccccc2)n1,-,EC50,-,H37Rv,<12.5 µg/mL
CCCCCNCCNC12CC3CC(CC(C3)C1)C2,-,MIC,-,-,37.5 µM
O=C1N(Cc2ccccc2)CCN1Cc1ccccc1,BACTEC,MIC bound,-,H37Rv,>12.5 µg/mL
CCOC(=O)Nc1ccc(C(=O)Nc2ccccc2)c(O)c1,-,MIC,-,H37Rv,50 µg/mL
COc1ccc(CCNCCNCCCCc2ccccc2)cc1OC,-,MIC,-,-,50 µM
COc1ccc(C(=O)/C=C/c2ccco2)c(O)c1,-,inhibition,12.5 µg/mL,H37Rv,3%
CCCCCCCCCCCNCCNCc1cccc(OC)c1OC,-,MIC,-,-,25 µM
CCC(C)NCCNCCc1ccc(Cl)cc1Cl,-,MIC,-,-,25 µM
CC[C@H]1OC(=O)[C@H](C)[C@@H](O[C@H]2C[C@@](C)(OC)[C@@H](O)[C@H](C)O2)[C@H](C)[C@@H](O[C@@H]2O[C@H](C)C[C@H](N(C)C)[C@H]2O)[C@](C)(O)C[C@@H](C)CN(C)[C@H](C)[C@@H](O)[C@]1(C)O,-,MBC,-,ATCC 35828,>8 µg/mL
O=C(O)CC(CC(=O)O)C(=O)O,-,MIC,-,H37Rv,>100 µg/mL
CO[C@H]1/C=C/O[C@@]2(C)Oc3c(C)c(O)c4c(=O)c(c5oc6cc(N7CCN(CC(C)C)CC7)cc(=O)c6nc5c4c3=C2O)NC(=O)/C(C)=C\C=C\[C@H](C)[C@H](O)[C@@H](C)[C@@H](O)[C@@H](C)[C@H](OC(C)=O)[C@@H]1C,-,MIC,-,TN987,16 µg/mL
CCN(CC)C(=S)SSC(=S)N(CC)CC,BACTEC,MIC,-,H37Rv,1 µg/mL
O=C1NC(=S)NC1(c1ccccc1)c1ccccc1,-,MIC,-,H37Rv,>100 µg/mL
CN[C@@H]1[C@H](O[C@H]2[C@H](O[C@H]3[C@H](O)[C@@H](O)[C@H](N=C(N)N)[C@@H](O)[C@@H]3N=C(N)N)O[C@@H](C)[C@]2(O)C=O)O[C@@H](CO)[C@H](O)[C@H]1O,-,MIC,-,TN3187 (W1),>2 µg/mL
COc1cc(NS(=O)(=O)c2ccccc2)c2nc3ccc(Cl)cc3nc2c1,BACTEC,inhibition,12.5 µg/mL,H37Rv,-23%
O=C(/C=C/c1cc2ccccc2c2ccccc12)c1cccc(O)c1,-,EC50,-,H37Rv,<12.5 µg/mL
CO[C@H]1/C=C/O[C@@]2(C)Oc3c(C)c(O)c4c(O)c(c5c(c4c3C2=O)NC2(CCN(CC(C)C)CC2)N=5)=NC(=O)/C(C)=C\C=C\[C@H](C)[C@H](O)[C@@H](C)[C@@H](O)[C@@H](C)[C@H](OC(C)=O)[C@@H]1C,-,MIC,-,2912 (rifampin-sensitive),0.025 µg/mL
Nc1ccc2cc(S(=O)(=O)O)cc(O)c2c1,-,MIC,-,H37Rv,>100 µg/mL
Cc1oc2c(C)c3oc(=O)cc(C)c3cc2c1CN,resazurin,MIC bound,-,H37Rv,>6.25 µg/mL
CCCCN1C(=O)C=CC1=O,-,MIC,-,H37Rv,50 µg/mL
CCOC(=O)Nc1cc(NCCc2ccc(S(N)(=O)=O)cc2)c2nccnc2n1,-,inhibition,12.5 µg/mL,H37Rv,0%
CCN(CC)CC.NS(=O)(=O)c1ccc(NC(=S)S)cc1,BACTEC,MIC bound,-,H37Rv,≤128 µg/mL
Clc1ccc(OCCOCC[n+]2ccccc2)c(Cl)c1,-,MIC,-,H37Rv,>100 µg/mL
COc1ccc(C)cc1N=NC1C(=O)N(C(=O)CC(=O)Nc2cccc(C)c2)N=C1C,BACTEC,inhibition,12.5 µg/mL,H37Rv,0%
CN(C)c1ccc(NC(=S)Nc2ccc(N(C)C)cc2)cc1,-,MIC,-,H37Rv,>100 µg/mL
CCc1c2c(nc3ccc(OC(=O)N4CCC(N5CCCCC5)CC4)cc13)-c1cc3c(c(=O)n1C2)COC(=O)[C@]3(O)CC.Cl,BACTEC,MIC bound,-,H37Rv,>12.5 µg/mL
c1ccc2c(c1)CC(NCCNC1CCCCCCC1)C2,-,MIC,-,-,25 µM
O=C(NCCOC(=O)CCCCCCCCC(=O)OCCNC(=O)NC(=O)c1cn(Cc2ccccc2)c(=O)[nH]c1=O)NC(=O)c1cn(Cc2ccccc2)c(=O)[nH]c1=O,BACTEC,MIC bound,-,H37Rv,>12.5 µg/mL
CCCCCOc1ccc(C(=O)O)cc1[N+](=O)[O-],-,MIC,-,H37Rv,100 µg/mL
O=C1C2=C(Nc3cc(Cl)ccc3N2)OC1c1ccccc1Cl,BACTEC,MIC bound,-,H37Rv,>12.5 µg/mL
COc1cc(NS(=O)(=O)c2ccc(C)cc2)ccc1N,-,MIC,-,H37Rv,>100 µg/mL
O=C(CCCCC(=O)N/N=C/c1cccc2ccccc12)N/N=C/c1cccc2ccccc12,BACTEC,inhibition,12.5 µg/mL,H37Rv,-6%
CC(NCCNCc1ccccc1)c1cccc2ccccc12,-,MIC,-,-,50 µM
CSC(=S)NCc1nnn(Cc2ccccc2)c1N,BACTEC,MIC,-,H37Rv,128 µg/mL
C[C@@H]1CN(c2c(F)c(N)c3c(=O)c(C(=O)O)cn(C4CC4)c3c2F)C[C@H](C)N1,-,MBC90,-,DRUG-SUS,0.125 µg/mL

A second listing of 5 rows from above:

SMILES	read by	endpoint	dose	strain	value
CCN(CC)C(=S)SSC(=S)N(CC)CC	BACTEC	MIC	-	H37Rv	1 µg/mL
CCOC(=O)CNC(N)=O	-	MIC	-	H37Rv	>100 µg/mL
Cc1nc2nc3n(c(=O)c2nc1C)CCS3	resazurin	MIC bound	-	H37Rv	>6.25 µg/mL
CCC(C)NCCNCCc1ccc(Cl)cc1Cl	-	MIC	-	-	25 µM
CN(C)c1ccc(NC(=S)Nc2ccc(N(C)C)cc2)cc1	-	MIC	-	H37Rv	>100 µg/mL

Blank or dashed fields: not listed here. Percent inhibition refers to the dose given; in toxicity tests it is the harm to the cells. ECn: concentration that inhibits the pathogen or its effect by n%. Lines come from different laboratories, so protocols vary. MIC bound: limit read from a one-dose screen.